A mixed list of measured activities; the numbers were collected in NIAID ChemDB.

All rows: growth or infection tests; species: Herpes simplex virus 1; read by: plaque count; read-out: EC50

Rows are shuffled and stem from different studies.

{"compound": "C[C@]12CC[C@H]3[C@@H](CC[C@]4(O)C[C@@H](O[C@@H]5O[C@@H](O)[C@H](O)[C@@H](O)[C@H]5O)CC[C@]34C=O)[C@@]1(O)CC[C@@H]2C1=CC(=O)OC1", "cell line": "VERO", "strain or isolate": "KOS", "result": "0.02 µM"}
{"compound": "Nc1ncnc2c1ccn2[C@@H]1O[C@H](CO)[C@@H](O)[C@@H]1O", "cell line": "HFF", "result": "320 µM"}
{"compound": "COC(=O)c1cc(O)c(O)c(O)c1", "cell line": "HEL", "strain or isolate": "B2006 (TK-)", "result": "6 µg/mL"}
{"compound": "CC(=O)OC[C@H]1O[C@H](OC(=O)NS(=O)(=O)OC[C@H]2O[C@@H](n3ccc(=O)[nH]c3=O)[C@H](OC(C)C)[C@@H]2OC(C)C)[C@H](OC(C)=O)[C@@H](OC(C)=O)[C@@H]1OC(C)=O", "cell line": "HeLa", "strain or isolate": "KOS", "result": ">540 µM"}
{"compound": "O=C1c2cc3ccoc3cc2O[C@@H]2COc3cc4c(cc3[C@H]12)OCO4", "cell line": "VERO", "strain or isolate": "KOS", "result": ">50 µg/mL"}
{"compound": "C[C@@]1(CO)[C@H](O)CC[C@@]2(C)[C@H]1CC[C@H]1C[C@@H]3C[C@@]12CC[C@@]3(C)O", "cell line": "VERO", "result": ">500 µM"}
{"compound": "CC1(C)OC2C(O1)[C@@H](COC(N)=O)O[C@H]2n1ccc(=O)[nH]c1=O", "cell line": "HeLa", "strain or isolate": "KOS", "result": ">660 µM"}
{"compound": "O=c1[nH]c(=O)n([C@H]2C[C@H](O)[C@@H](CO)O2)cc1I", "result": "5 µM"}
{"compound": "Nc1ncnc2c1ncn2CCOCP(=O)(O)O", "cell line": "VERO", "strain or isolate": "KOS", "result": "95 µM"}
{"compound": "Cc1cn([C@@H]2C[C@@H](O)[C@H](CO)O2)c(=O)[nH]c1=O", "cell line": "HeLa", "result": "25 µM"}
{"compound": "CC(=O)CCC(=O)O[C@H]1C[C@H](n2cc(/C=C/Br)c(=O)[nH]c2=O)O[C@@H]1COP1(=O)OCc2ccccc2O1", "cell line": "VERO", "strain or isolate": "KUPKA (TK+)", "result": "0.62 µg/mL"}
{"compound": "C[C@H]1OC(O[C@H]2[C@@H](O)C[C@H](O[C@@]3(C)[C@@H](O)C[C@H](O[C@H]4CC[C@@]5(C)[C@H](CC[C@@H]6[C@@H]5C[C@@H](O)[C@]5(C)[C@@H](C7=CC(=O)OC7)CC[C@]65O)C4)O[C@@H]3C)O[C@@H]2C)C[C@H](O)[C@@H]1O", "cell line": "VERO", "strain or isolate": "29R", "result": "0.18 µM"}
{"compound": "COC(=O)[C@]1(C)CCC[C@@]2(C)[C@H]1[C@H](O)CC1C[C@@H](O)[C@]3(C)CC[C@]12C3", "cell line": "HeLa", "strain or isolate": "F", "result": "31.4 µM"}
{"compound": "C[C@H]1O[C@@H](O[C@H]2CC[C@@]3(C)[C@H](CC[C@@H]4[C@@H]3CC[C@]3(C)[C@@H](C5=CC(=O)OC5)CC[C@]43O)C2)C[C@H](O)[C@@H]1O", "cell line": "VERO", "strain or isolate": "KOS", "result": "0.14 µM"}
{"compound": "Cc1cccc2c1OP(=O)(OC[C@H]1O[C@@H](n3cc(/C=C/Br)c(=O)[nH]c3=O)C[C@@H]1OC(=O)C(C)(C)C)OC2", "cell line": "VERO", "strain or isolate": "B2006 (TK-)", "result": ">128 µg/mL"}
{"compound": "C[C@@]12COCO[C@@H]1CC[C@@]1(C)[C@H]2CC[C@H]2C[C@@H]3CC21CCC3=O", "cell line": "VERO", "result": ">500 µM"}
{"compound": "C[C@H]1O[C@@H](O[C@H]2[C@@H](O)C[C@H](O[C@H]3CC[C@@]4(C)[C@H](CC[C@@H]5[C@@H]4C[C@@H](O)[C@]4(C)[C@@H](C6=CC(=O)OC6)CC[C@]54O)C3)O[C@@H]2C)C[C@H](O)[C@@H]1O", "cell line": "VERO", "strain or isolate": "KOS", "result": "0.27 µM"}
{"compound": "C=C1CCC23C[C@H]1C[C@@H]2CC[C@H]1[C@](C)(CO)[C@H](O)CC[C@@]13C", "result": ">500 µM"}
{"compound": "CC(=O)OC[C@]1(C)CCC[C@@]2(C)[C@H]1[C@H](O)CC1C[C@@H](OC(C)=O)[C@]3(C)CC[C@]12C3", "cell line": "HeLa", "strain or isolate": "F", "result": "13.1 µM"}
{"compound": "Nc1ncnc2c1c(Br)cn2[C@H]1CC[C@@H](CO)O1", "cell line": "HFF", "result": ">100 µM"}
{"compound": "COc1cc(O)c2c(=O)cc(-c3ccc(OC)c(-c4c(O)cc(O)c5c(=O)cc(-c6ccc(O)cc6)oc45)c3)oc2c1", "cell line": "VERO", "strain or isolate": "HF", "result": "0.76 µg/mL"}
{"compound": "Cc1cccc2c1OP(=O)(OC[C@H]1O[C@@H](n3cc(/C=C/Br)c(=O)[nH]c3=O)C[C@@H]1OC(=O)[C@@H](C)N)OC2", "cell line": "VERO", "strain or isolate": "B2006 (TK-)", "result": ">128 µg/mL"}
{"compound": "CO[C@H]1C[C@H](O[C@H]2CC[C@]3(C=O)[C@H]4CC[C@]5(C)[C@@H](C6=CC(=O)OC6)CC[C@]5(O)[C@H]4CC[C@]3(O)C2)O[C@H](C)[C@H]1O", "cell line": "VERO", "strain or isolate": "29R", "result": "0.13 µM"}
{"compound": "Cc1cc(=O)oc2cc(O)c(O)cc12", "cell line": "HEL", "strain or isolate": "B2006 (TK-)", "result": "23 µg/mL"}
{"compound": "CC(=O)N[C@H]1[C@@H](OC(=O)NS(=O)(=O)OC[C@H]2O[C@@H](n3ccc(=O)[nH]c3=O)[C@H](OC(C)C)[C@@H]2OC(C)C)O[C@H](COC(C)=O)[C@@H](OC(C)=O)[C@@H]1OC(C)=O", "cell line": "HeLa", "strain or isolate": "KOS", "result": ">270 µM"}
{"compound": "CC1(C)OC[C@]2(C)[C@@H](CC[C@@]3(C)[C@H]2CC[C@H]2C[C@@H]4CC23CCC4=O)O1", "cell line": "VERO", "result": ">500 µM"}
{"compound": "NC(=O)c1cn([C@@H]2O[C@H](CO)[C@H](O)[C@H]2O)c2ncnc(N)c12", "cell line": "HFF", "result": "10 µM"}
{"compound": "Cc1ccc(S(=O)(=O)OC[C@@]2(O)CCC34C[C@H]2C[C@@H]3CC[C@H]2[C@](C)(CO)[C@H](O)CC[C@@]24C)cc1", "result": "0.7 µM"}
{"compound": "COc1ccc(OC(=O)P(=O)(O)O)cc1", "cell line": "VERO", "strain or isolate": "C42", "result": "500 µM"}
{"compound": "CC(=O)N[C@H]1[C@@H](OC(=O)NS(=O)(=O)OC[C@H]2O[C@@H](n3ccc(=O)[nH]c3=O)[C@H](O)[C@@H]2O)O[C@H](COC(C)=O)[C@@H](OC(C)=O)[C@@H]1OC(C)=O", "cell line": "HeLa", "strain or isolate": "KOS", "result": ">575 µM"}
{"compound": "COc1c2c(cc3ccoc13)C(=O)[C@H]1c3cc4c(cc3OC[C@H]1O2)OCO4", "cell line": "VERO", "strain or isolate": "KOS", "result": "18 µg/mL"}
{"compound": "N#Cc1cn([C@@H]2O[C@H](CO)[C@H](O)[C@H]2O)c2ncnc(N)c12", "cell line": "HFF", "result": "0.5 µM"}
{"compound": "Cc1cc2c(ccc3nc(N)nc(N)c32)[nH]1", "cell line": "VERO", "strain or isolate": "KOS", "result": "8.3 µg/mL"}
{"compound": "CO[C@H]1C[C@H](O[C@H]2[C@@H](O)C[C@H](O[C@H]3[C@@H](O)C[C@H](O[C@H]4CC[C@@]5(C)[C@H](CC[C@@H]6[C@@H]5CC[C@]5(C)[C@@H](C7=CC(=O)OC7)CC[C@]65O)C4)O[C@@H]3C)O[C@@H]2C)O[C@H](C)[C@H]1O", "cell line": "VERO", "strain or isolate": "29R", "result": "0.25 µM"}
{"compound": "NC(=O)c1cn([C@H]2CC[C@@H](CO)O2)c2ncnc(N)c12", "cell line": "HFF", "result": ">100 µM"}
{"compound": "Cc1ccc(OC(=O)P(=O)(O)O)cc1", "cell line": "VERO", "strain or isolate": "C42", "result": "500 µM"}
{"compound": "Nc1ncnc2c1ccn2[C@@H]1O[C@H](CO)[C@@H](O)[C@H]1O", "cell line": "KB", "result": "320 µM"}
{"compound": "O=c1[nH]cccc1O", "cell line": "HEL", "strain or isolate": "KOS", "result": ">200 µg/mL"}
{"compound": "COc1cc2c(cc1-c1cc3cc4ccoc4cc3oc1=O)OCO2", "cell line": "VERO", "strain or isolate": "KOS", "result": ">50 µg/mL"}
{"compound": "Nc1ncnc2c1c(I)cn2COC(CO)CO", "cell line": "HFF", "result": "3.5 µM"}
{"compound": "C[C@H]1O[C@@H](O[C@H]2CC[C@]3(C=O)[C@H]4CC[C@]5(C)[C@@H](C6=CC(=O)OC6)CC[C@]5(O)[C@@H]4CC[C@]3(O)C2)C[C@H](O)[C@@H]1O", "cell line": "VERO", "strain or isolate": "KOS", "result": "0.08 µM"}
{"compound": "CC(=O)O[C@H]1C[C@H](n2cc(/C=C/Br)c(=O)[nH]c2=O)O[C@@H]1COP1(=O)OCc2ccccc2O1", "cell line": "VERO", "strain or isolate": "KUPKA (TK+)", "result": "0.38 µg/mL"}
{"compound": "C[C@@]12CC[C@]3(C1)C(CC2=O)C[C@@H](O)[C@H]1[C@](C)(C(=O)O)CCC[C@@]13C", "cell line": "HeLa", "strain or isolate": "F", "result": "254 µM"}
{"compound": "COC(=O)[C@H](C)NP(=O)(OC[C@@H]1C[C@]12C[C@@H]2n1cnc2c(N)ncnc21)Oc1ccccc1", "cell line": "VERO", "result": "20 µM"}
{"compound": "Nc1nc(-c2ccc(Br)cc2)cs1", "cell line": "VERO", "strain or isolate": "KOS", "result": "10 µg/mL"}
{"compound": "C[C@H](N)C(=O)O[C@H]1C[C@H](n2cc(/C=C/Br)c(=O)[nH]c2=O)O[C@@H]1COP1(=O)OCc2ccccc2O1", "cell line": "VERO", "strain or isolate": "KUPKA (TK+)", "result": "0.18 µg/mL"}
{"compound": "C[C@]12CCC3OC[C@@]3(C)[C@@H]1CC[C@H]1C[C@@H]3CC12CC[C@]3(O)CO", "cell line": "VERO", "result": ">500 µM"}
{"compound": "O=c1[nH]c(=O)n([C@H]2C[C@H](O)[C@@H](CO)O2)cc1/C=C/Br", "cell line": "HeLa", "result": "<0.001 µM"}
{"compound": "O=c1nc2oc(-c3ccccc3)cc2cn1COCCO", "cell line": "VERO", "strain or isolate": "F", "result": ">100 µM"}
{"compound": "C[C@@H](N)C(=O)O[C@H]1C[C@H](n2cc(/C=C/Br)c(=O)[nH]c2=O)O[C@@H]1COP1(=O)OCc2ccccc2O1", "cell line": "VERO", "strain or isolate": "B2006 (TK-)", "result": ">128 µg/mL"}
{"compound": "CCCCCCCCC#Cc1cn(CC=C(CO)CO)c(=O)[nH]c1=O", "cell line": "VERO", "strain or isolate": "F", "result": ">10 µM"}
{"compound": "O=C1Nc2c(Cl)cc(Cl)cc2C12Nc1ccccc1S2", "cell line": "VERO", "strain or isolate": "KOS", "result": "13 µg/mL"}
{"compound": "C[C@H](Oc1ccc(Cl)cc1)C(=O)O", "cell line": "HeLa", "strain or isolate": "TYLER", "result": "800 µM"}
{"compound": "CCCOC(=O)c1cc(O)c(O)c(O)c1", "cell line": "HEL", "strain or isolate": "B2006 (TK-)", "result": "23 µg/mL"}
{"compound": "CC(=O)c1cn(CC=C(CO)CO)c(=O)[nH]c1=O", "cell line": "VERO", "strain or isolate": "F", "result": ">100 µM"}
{"compound": "C[C@@]1(CO)[C@H](O)CC[C@@]2(C)[C@H]1CC[C@H]1C[C@@H]3C[C@@]12CC[C@]3(O)CO", "result": "1.2 µM"}
{"compound": "NC(=O)c1cn(COCCO)c2ncnc(N)c12", "cell line": "HFF", "result": ">100 µM"}
{"compound": "COC(=O)[C@]1(C)CCC[C@@]2(C)[C@H]1C(=O)CC1CC(=O)[C@]3(C)CC[C@]12C3", "cell line": "HeLa", "strain or isolate": "F", "result": "27.7 µM"}
{"compound": "N#Cc1cn(COC(CO)CO)c2ncnc(N)c12", "cell line": "HFF", "result": ">100 µM"}
{"compound": "Cc1cccc2c1OP(=O)(OC[C@H]1O[C@@H](n3cc(/C=C/Br)c(=O)[nH]c3=O)C[C@@H]1OC(=O)[C@@H](N)Cc1ccccc1)OC2", "cell line": "VERO", "strain or isolate": "KUPKA (TK+)", "result": "0.46 µg/mL"}
{"compound": "CCCCCc1ccc(C#Cc2cn(COCCO)c(=O)[nH]c2=O)cc1", "cell line": "VERO", "strain or isolate": "F", "result": ">10 µM"}
{"compound": "Cc1cccc2c1OP(=O)(OC[C@H]1O[C@@H](n3cc(/C=C/Br)c(=O)[nH]c3=O)C[C@@H]1OC(=O)[C@H](N)CC(C)C)OC2", "cell line": "VERO", "strain or isolate": "B2006 (TK-)", "result": ">128 µg/mL"}
{"compound": "O=c1[nH]c(=O)n([C@H]2C[C@H](O)[C@@H](CO)O2)cc1I", "cell line": "HeLa", "result": "0.5 µM"}
{"compound": "O=C(O)P(=O)(O)O", "cell line": "SIRC", "strain or isolate": "V8663", "result": "<500 µM"}
{"compound": "COc1ccc2c(c1)COP(=O)(OC[C@H]1O[C@@H](n3cc(/C=C/Br)c(=O)[nH]c3=O)C[C@@H]1O)O2", "cell line": "VERO", "strain or isolate": "B2006 (TK-)", "result": ">128 µg/mL"}
{"compound": "CCCCCc1ccc(-c2cc3cn(CC=C(CO)CO)c(=O)nc3o2)cc1", "cell line": "VERO", "strain or isolate": "F", "result": "4.8 µM"}

The last 8 rows once more:

compound	cell line	strain or isolate	result
N#Cc1cn(COC(CO)CO)c2ncnc(N)c12	HFF		>100 µM
Cc1cccc2c1OP(=O)(OC[C@H]1O[C@@H](n3cc(/C=C/Br)c(=O)[nH]c3=O)C[C@@H]1OC(=O)[C@@H](N)Cc1ccccc1)OC2	VERO	KUPKA (TK+)	0.46 µg/mL
CCCCCc1ccc(C#Cc2cn(COCCO)c(=O)[nH]c2=O)cc1	VERO	F	>10 µM
Cc1cccc2c1OP(=O)(OC[C@H]1O[C@@H](n3cc(/C=C/Br)c(=O)[nH]c3=O)C[C@@H]1OC(=O)[C@H](N)CC(C)C)OC2	VERO	B2006 (TK-)	>128 µg/mL
O=c1[nH]c(=O)n([C@H]2C[C@H](O)[C@@H](CO)O2)cc1I	HeLa		0.5 µM
O=C(O)P(=O)(O)O	SIRC	V8663	<500 µM
COc1ccc2c(c1)COP(=O)(OC[C@H]1O[C@@H](n3cc(/C=C/Br)c(=O)[nH]c3=O)C[C@@H]1O)O2	VERO	B2006 (TK-)	>128 µg/mL
CCCCCc1ccc(-c2cc3cn(CC=C(CO)CO)c(=O)nc3o2)cc1	VERO	F	4.8 µM

An empty or dashed field is not shown. ECn: concentration that inhibits the pathogen or its effect by n%.